Tested on: HCV-poliovirus (HCV-PV) chimera in HeLa cells
Experiment: Compound activity evaluation using an HCV-poliovirus chimera

SMILES	IC50
N#Cc1c(-c2ccc(S(=O)(=O)NC(CF)CF)cn2)n(C2CCC2)c2cc(OC(F)(F)F)ccc12 [compound 24, 6-[3-cyano-1-cyclobutyl-6-(trifluoromethoxy)-1H-indol-2-yl]-N-(1,3-difluoropropan-2-yl)pyridine-3-sulfonamide]	< 500 nM
N#Cc1c(-c2ccc(S(=O)(=O)NC(CF)CF)cn2)n(C2CCC2)c2ccc(F)cc12 [compound 29, 6-(3-cyano-1-cyclobutyl-5-fluoro-1H-indol-2-yl)-N-(1,3-difluoropropan-2-yl)pyridine-3-sulfonamide]	< 500 nM
N#Cc1c(-c2ccc(S(=O)(=O)NC(CF)CF)cn2)n(C2CCC2)c2ccc(Cl)cc12 [compound 30, 6-(5-chloro-3-cyano-1-cyclobutyl-1H-indol-2-yl)-N-(1,3-difluoropropan-2-yl)pyridine-3-sulfonamide]	< 500 nM
N#Cc1c(-c2ccc(S(=O)(=O)NC(CF)CF)cn2)n(C2CCC2)c2ccc(OC(F)F)cc12 [compound 32, 6-[3-cyano-1-cyclobutyl-5-(difluoromethoxy)-1H-indol-2-yl]-N-(1,3-difluoropropan-2-yl)pyridine-3-sulfonamide]	< 500 nM
N#Cc1c(-c2ccc(S(=O)(=O)NC(CF)CF)cn2)n(C2CCCC2)c2ccc(OC(F)(F)F)cc12 [compound 34, 6-[3-cyano-1-cyclopentyl-5-(trifluoromethoxy)-1H-indol-2-yl]-N-(1,3-difluoropropan-2-yl)pyridine-3-sulfonamide]	< 500 nM
CC(C)n1c(-c2ccc(S(=O)(=O)NC(CF)CF)cn2)c(C#N)c2ccc(OC(F)F)cc21 [compound 36, 6-[3-cyano-6-(difluoromethoxy)-1-(propan-2-yl)-1H-indol-2-yl]-N-(1,3-difluoropropan-2-yl)pyridine-3-sulfonamide]	< 500 nM
N#Cc1c(-c2ccc(S(=O)(=O)NC(CF)CF)cn2)n(C2CCC2)c2cc(Cl)ccc12 [compound 37, 6-(6-chloro-3-cyano-1-cyclobutyl-1H-indol-2-yl)-N-(1,3-difluoropropan-2-yl)pyridine-3-sulfonamide]	< 500 nM
N#Cc1c(-c2ccc(S(=O)(=O)NC(CF)CF)cn2)n(C2CCCC2)c2ccc(F)cc12 [compound 38, 6-(3-cyano-1-cyclopentyl-5-fluoro-1H-indol-2-yl)-N-(1,3-difluoropropan-2-yl)pyridine-3-sulfonamide]	< 500 nM
N#Cc1c(-c2ccc(S(=O)(=O)NC(CF)CF)cn2)n(CC2CC2)c2cc(OC(F)F)ccc12 [compound 41, 6-[3-cyano-1-(cyclopropylmethyl)-6-(difluoromethoxy)-1H-indol-2-yl]-N-(1,3-difluoropropan-2-yl)pyridine-3-sulfonamide]	< 500 nM
N#Cc1c(-c2ccc(S(=O)(=O)NC(CF)CF)cn2)n(C2CC2)c2cc(OC(F)F)ccc12 [compound 42, 6-[3-cyano-1-cyclopropyl-6-(difluoromethoxy)-1H-indol-2-yl]-N-(1,3-difluoropropan-2-yl)pyridine-3-sulfonamide]	< 500 nM
CC(C)c1ccc2c(C#N)c(-c3ccc(S(=O)(=O)NC(CF)CF)cn3)n(C3CCC3)c2c1 [compound 43, 6-[3-cyano-1-cyclobutyl-6-(propan-2-yl)-1H-indol-2-yl]-N-(1,3-difluoropropan-2-yl)pyridine-3-sulfonamide]	< 500 nM
Cc1ccc2c(C#N)c(-c3ccc(S(=O)(=O)NC(CF)CF)cn3)n(C3CCCC3)c2c1 [compound 44, 6-(3-cyano-1-cyclopentyl-6-methyl-1H-indol-2-yl)-N-(1,3-difluoropropan-2-yl)pyridine-3-sulfonamide]	< 500 nM
CCCn1c(-c2ccc(S(=O)(=O)NC(CF)CF)cn2)c(C#N)c2ccc(OC(F)F)cc21 [compound 45, 6-[3-cyano-6-(difluoromethoxy)-1-propyl-1H-indol-2-yl]-N-(1,3-difluoropropan-2-yl)pyridine-3-sulfonamide]	< 500 nM
N#Cc1c(-c2ccc(S(=O)(=O)NC(CF)CF)cn2)n(C2CCCC2)c2cc(OC(F)F)ccc12 [compound 49, 6-[3-cyano-1-cyclopentyl-6-(difluoromethoxy)-1H-indol-2-yl]-N-(1,3-difluoropropan-2-yl)pyridine-3-sulfonamide]	< 500 nM
N#Cc1c(-c2ccc(S(=O)(=O)NC(CF)CF)cn2)n(C2CCC2)c2cc(Cl)c(F)cc12 [compound 50, 6-(6-chloro-3-cyano-1-cyclobutyl-5-fluoro-1H-indol-2-yl)-N-(1,3-difluoropropan-2-yl)pyridine-3-sulfonamide]	< 500 nM
CC(NS(=O)(=O)c1ccc(-c2c(C#N)c3ccc(OC(F)F)cc3n2C2CCCC2)nc1)C(F)(F)F (stereo not shown) [compound 53, 6-[3-cyano-1-cyclopentyl-6-(difluoromethoxy)-1H-indol-2-yl]-N-(1,1,1-trifluoropropan-2-yl)pyridine-3-sulfonamide]	< 500 nM
Cc1ccc2c(C#N)c(-c3ccc(S(=O)(=O)NC(CF)CF)cn3)n([C@@H]3CCOC3)c2c1 [compound 54, 6-{3-cyano-6-methyl-1-[(3R)-tetrahydrofuran-3-yl]-1H-indol-2-yl}-N-(1,3-difluoropropan-2-yl)pyridine-3-sulfonamide]	< 500 nM
CC(C)n1c(-c2ccc(S(=O)(=O)NC(CF)CF)cn2)c(C#N)c2cc(F)ccc21 [compound 60, 6-[3-cyano-5-fluoro-1-(propan-2-yl)-1H-indol-2-yl]-N-(1,3-difluoropropan-2-yl)pyridine-3-sulfonamide]	< 500 nM
CC(C)n1c(-c2ccc(S(=O)(=O)NC(CF)CF)cn2)c(C#N)c2ccc(F)cc21 [compound 61, 6-[3-cyano-6-fluoro-1-(propan-2-yl)-1H-indol-2-yl]-N-(1,3-difluoropropan-2-yl)pyridine-3-sulfonamide]	< 500 nM
N#Cc1c(-c2ccc(S(=O)(=O)NC(CF)CF)cn2)n(C2CCCC2)c2cc(Cl)ccc12 [compound 64, 6-(6-chloro-3-cyano-1-cyclopentyl-1H-indol-2-yl)-N-(1,3-difluoropropan-2-yl)pyridine-3-sulfonamide]	< 500 nM
CC(C)n1c(-c2ccc(S(=O)(=O)NC(CF)CF)cn2)c(C#N)c2cc(Cl)ccc21 [compound 65, 6-[5-chloro-3-cyano-1-(propan-2-yl)-1H-indol-2-yl]-N-(1,3-difluoropropan-2-yl)pyridine-3-sulfonamide]	< 500 nM
N#Cc1c(-c2ccc(S(=O)(=O)NC(CF)CF)cn2)n(CC2CC2)c2cc(OC(F)(F)F)ccc12 [compound 68, 6-[3-cyano-1-(cyclopropylmethyl)-6-(trifluoromethoxy)-1H-indol-2-yl]-N-(1,3-difluoropropan-2-yl)pyridine-3-sulfonamide]	< 500 nM
CC(C)NS(=O)(=O)c1cnc(-c2c(C#N)c3ccc(C4CC4)cc3n2C2CCC2)nc1 [compound 71, 2-(3-cyano-1-cyclobutyl-6-cyclopropyl-1H-indol-2-yl)-N-(propan-2-yl)pyrimidine-5-sulfonamide]	< 500 nM
N#Cc1c(-c2ccc(S(=O)(=O)NC(CF)CF)cn2)n(C2CCCC2)c2ccc(Cl)cc12 [compound 72, 6-(5-chloro-3-cyano-1-cyclopentyl-1H-indol-2-yl)-N-(1,3-difluoropropan-2-yl)pyridine-3-sulfonamide]	< 500 nM
Cc1ccc2c(C#N)c(-c3ncc(S(=O)(=O)NC(C)C)cn3)n(C3CCCC3)c2c1 [compound 74, 2-(3-cyano-1-cyclopentyl-6-methyl-1H-indol-2-yl)-N-(propan-2-yl)pyrimidine-5-sulfonamide]	< 500 nM
